Compound potency records, mixed from different reports. Data source: NIAID ChemDB in PubChem.

All rows: target-level tests; organism: Hepatitis B virus; target: DNA polymerase; endpoint: IC50

ICn: concentration for n% inhibition. a–b is a range or a potency band. An empty or dashed field is not shown. Conditions beyond the fields shown may differ between rows.

smiles,strain or isolate,result
COc1nc(Nc2ccc3[nH]ncc3c2)nc(N2CCN(C(=O)c3cccnc3)CC2)n1,,0.1–1 µg/mL
Nc1nc2c(ncn2COCCOP(=O)(O)OP(=O)(O)OP(=O)(O)O)c(=O)[nH]1,,10 µM
COc1nc(NCCCN2CCOCC2)nc(Nc2ccc3cn[nH]c3c2)n1,,<0.01 µg/mL
Nc1nc2c(ncn2CCC(CO)COP(=O)(O)OP(=O)(O)OP(=O)(O)O)c(=O)[nH]1,,8 µM
Cc1ccc(C(=O)NCCN2CCCCC2)c(Nc2ccc3cn[nH]c3c2)n1,,<0.1 µg/mL
CC(C)NC1=NC(NC(C)C)N(CN)C(Nc2ccc3cn[nH]c3c2)=N1,,0.1–1 µg/mL
Cc1ccc(C(=O)NCCN(C)C)c(Nc2ccc3cn[nH]c3c2)n1,,~0.01 µg/mL
COc1nc(Nc2ccc3cn[nH]c3c2)nc(NC2CC2)n1,,>1 µg/mL
Cc1ccc(C(=O)NCc2cccnc2)c(Nc2ccc3cn[nH]c3c2)n1,,~0.1 µg/mL
Cc1cn([C@@H]2C[C@@H](N=[N+]=[N-])[C@H](CO)O2)c(=O)[nH]c1=O,,>10 µM
Cc1ccc(C(=O)NC(C)C)c(Nc2ccc3[nH]ncc3c2)n1,,~0.1 µg/mL
Nc1nc2c(ncn2[C@H]2C[C@H](F)[C@@H](COP(=O)(O)OP(=O)(O)OP(=O)(O)O)O2)c(=O)[nH]1,,2.7 µM
C=C1[C@H](COP(=O)(O)OP(=O)(O)OP(=O)(O)O)[C@@H](O)C[C@@H]1n1cnc2c(=O)[nH]c(N)nc21,Polymerase mutant M550V/L526M/V553I,0.0313 µM
Cc1ccc(C(=O)NC(C)C)c(Nc2ccc3cn[nH]c3c2)n1,,<0.01 µg/mL
COc1nc(Nc2ccc3[nH]ncc3c2)nc(N2CCN(C)CC2)n1,,0.1–1 µg/mL
Cc1ccc(C(=O)NN2CCN(C)CC2)c(Nc2ccc3cn[nH]c3c2)n1,,<0.1 µg/mL
CNC(=O)C1CCN(c2nc(Nc3ccc4[nH]ncc4c3)nc(OC)n2)CC1,,>1 µg/mL
Nc1nc(=O)n([C@@H]2C=C[C@H](CO)O2)cc1F,,0.0025 µM

For reference, 2 entries again:

smiles | strain or isolate | result
Cc1ccc(C(=O)NN2CCN(C)CC2)c(Nc2ccc3cn[nH]c3c2)n1 |  | <0.1 µg/mL
COc1nc(Nc2ccc3[nH]ncc3c2)nc(N2CCN(C)CC2)n1 |  | 0.1–1 µg/mL